From paper doi:10.1101/2023.08.20.554025 (bioRxiv, 2023)

Assays:
[1] = molecular target: LayV F I167F/S186P ectodomain (Langya virus); assay: negative-stain EM
[2] = molecular target: LayV F I167F/S186P/N95C/A114C ectodomain (Langya virus); assay: negative-stain EM
[3] = molecular target: LayV F N95C/A114C ectodomain (prefusion-stabilized) (Langya virus); assay: negative-stain EM
[4] = molecular target: T1, LayV F (ectodomain as flowed over 4G5 IgG in Extended Data Fig. 7) (Langya virus (LayV)); assay: BLI; 4G5 IgG immobilized on AMC biosensors; 100nM of LayV F or NiV F; settings: both partners purified
T1 chain: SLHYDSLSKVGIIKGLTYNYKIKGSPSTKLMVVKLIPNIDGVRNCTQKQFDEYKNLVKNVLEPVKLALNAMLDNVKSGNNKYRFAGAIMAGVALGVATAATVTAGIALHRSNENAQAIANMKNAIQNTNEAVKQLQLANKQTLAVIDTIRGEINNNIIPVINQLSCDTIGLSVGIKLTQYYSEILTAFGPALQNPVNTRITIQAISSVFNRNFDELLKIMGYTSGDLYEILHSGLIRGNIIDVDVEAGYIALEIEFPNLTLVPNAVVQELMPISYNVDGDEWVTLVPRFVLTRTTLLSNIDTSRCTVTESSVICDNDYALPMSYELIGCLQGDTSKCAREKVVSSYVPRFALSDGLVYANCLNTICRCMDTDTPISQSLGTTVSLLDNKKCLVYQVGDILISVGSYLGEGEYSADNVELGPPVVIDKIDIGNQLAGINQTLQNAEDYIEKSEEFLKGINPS

**Q.** How did the stoichiometry N [1] turn out when “LayV F I167F/S186P ectodomain (domain or fragment)” was run?
**A.** Its stoichiometry N is 3.

**Q.** With “LayV F I167F/S186P/N95C/A114C ectodomain (domain or fragment)” as the molecule, how does the stoichiometry N [2] read?
**A.** Its stoichiometry N is 3.

**Q.** How did the stoichiometry N [3] turn out when “LayV F N95C/A114C ectodomain (prefusion-stabilized) (domain or fragment)” was run?
**A.** Its stoichiometry N is 3.

B1: 4G5 IgG (antibody, V domains shown)
VH: EVQLQQSGADLVKPGASVKLSCTASGFNIKDTYIHWVKQRPEQGLEWIGRIDPANDNFKYDPKFQGKATITTDTSSNTAYLQLSSLTSEDTAVYYCASVITTTGYALDYWGQGTSVTVSS
VL: DIQMTQSPASLSASVGETVTITCRASGNIHNYLAWYQQKQGKSPQLLVYSAKTLADGVPSRFSGSGSGTQYSLKINSLQPEDFGSYYCQHFWSSPRTFGGGTKLEIK
notes: also called MojV F-directed monoclonal antibody (mAb) (4G5); copies: 2 + 2
**Q.** Does B1 bind [4]?
**A.** Result: binds
